Test results reported in patent publication US7635685B2 (priority 2003, dated 2009).
≈ marks a conversion by molar mass, not a printed value. Where two headings read alike, the source gives them in different places.

Legend:
[1] = system: B. anthracis (Sterne strain); assay: MIC microdilution assay against B. anthracis; type: cell-based, Bacillus anthracis; settings: 18 h at 37° C., BHI broth, tested form: sulfate
E. coli strains = assay: MIC microdilution assay against E. coli strains; type: cell-based; settings: tested form: sulfate
E. coli XL1(pET9d) = assay: MIC microdilution assay against resistant E. coli XL1(pET9d); type: cell-based; settings: APH(3′), tested form: sulfate; for MIC: E. coli XL1 blue (pET9d), kanamycin-resistant
[2] = system: Pseudomonas aeruginosa (ATCC 27853); assay: MIC microdilution assay against Pseudomonas aeruginosa; type: cell-based; settings: tested form: sulfate; for MIC: Pseudomonas aeruginosa (ATCC 27853)
[3] = system: Salmonella virchow (SV49); assay: MIC microdilution assay against Salmonella virchow; type: cell-based; settings: tested form: sulfate; for MIC: Salmonella virchow (SV49), multidrug-resistant
[4] = system: Staphylococcus epidermidis; assay: MIC microdilution assay against Staphylococcus epidermidis; type: cell-based; settings: tested form: sulfate; for MIC: Staphylococcus epidermidis (ATCC 12228)
[5] = target: anthrax lethal factor (LF) (Bacillus anthracis, UniProt P15917); assay: in vitro fluorescent assay of inhibition of LF protease activity; settings: tested form: sulfate
[6] = read-out: Ki High salt, high salt: 10 mM potassium HEPES pH 7.4, 150 mM KCl, LF about 33 nM, without BSA
[7] = read-out: Ki Low salt, low salt: 10 mM potassium HEPES pH 7.4, LF about 33 nM, without BSA
[8] = read-out: Ki High salt, in the presence of BSA (in parentheses), high salt, 150 mM KCl, 0.1 mg/mL BSA
[9] = read-out: Ki Low salt, in the presence of BSA (in parentheses), low salt, 0.1 mg/mL BSA
[10] = strain resistant to kanamycin and neomycin B

| SMILES | MIC [1] [µg/mL] | MIC (E. coli strains; E. coli (ATCC 25922)) [µg/mL] | MIC (E. coli strains; E. coli (R47-100)) [µg/mL] | MIC (E. coli XL1(pET9d)) [µg/mL] | MIC [2] [µg/mL] | MIC [3] [µg/mL] | MIC [4] [µg/mL] | change of binding to LF by addition of BSA ([5]; 0.1 mg/mL BSA, low salt) | Ki [5, 6] [µM] | Ki [5, 7] [µM] | Ki [5, 8] [µM] | Ki [5, 9] [µM] | antibacterial activity against Pseudomonas aeruginosa (from MIC) [2] | antibacterial activity against E. coli strains (from MIC) (E. coli strains) | antibacterial activity against E. coli XL1(pET9d) (from MIC) (E. coli XL1(pET9d); kanamycin resistance) | more effective than kanamycin against Salmonella virchow [3, 10] | more effective than neomycin B against Salmonella virchow [3, 10] [times] | antibacterial activity against Salmonella virchow (from MIC) [3] | antibacterial activity against Staphylococcus epidermidis [4] | tighter binding to LF than monoamino glucose derivatives IV and VII ([5]; low salt) |
| --- | --- | --- | --- | --- | --- | --- | --- | --- | --- | --- | --- | --- | --- | --- | --- | --- | --- | --- | --- | --- |
| NC[C@@H]1O[C@H](O[C@H]2[C@@H](O)[C@H](O[C@@H]3[C@@H](O)[C@H](N)C[C@H](N)[C@H]3O[C@H]3O[C@H](CN)[C@@H](O)[C@H](O)[C@H]3N)O[C@@H]2CS)[C@H](N)[C@@H](O)[C@@H]1O | 8 (≈ 12.7 µM) | 100 to 150 | 90 to 100 | 700 to 800 | 350 to 400 | >800 | 10 to 11 | not significantly affected | 10 | 0.0002 | – | – | – | – | – | – | – | – | – | – |
| NC[C@@H]1O[C@H](O[C@H]2[C@@H](O)[C@H](O[C@@H]3[C@@H](O)[C@H](N)C[C@H](N)[C@H]3O[C@H]3O[C@H](CN)[C@@H](O)[C@H](O)[C@H]3N)O[C@@H]2CO[C@@H]2O[C@H](CO)[C@@H](N)[C@H](O)[C@H]2O)[C@H](N)[C@@H](O)[C@@H]1O | 2 (≈ 2.58 µM) | 45 to 60 | 45 to 50 | 250 to 400 | 45 to 50 | >1000 | 4.5 to 5.5 | – | 85 | 0.015 | 58 | 0.036 | – | – | – | – | – | – | – | – |
| NC[C@@H]1O[C@H](O[C@H]2[C@@H](O)[C@H](O[C@@H]3[C@@H](O)[C@H](N)C[C@H](N)[C@H]3O[C@H]3O[C@H](CN)[C@@H](O)[C@H](O)[C@H]3N)O[C@@H]2CO[C@@H]2O[C@H](CN)[C@@H](O)[C@H](O)[C@H]2N)[C@H](N)[C@@H](O)[C@@H]1O | 1 (≈ 1.29 µM) | 30 to 50 | 50 to 70 | 150 to 200 | 10 to 15 | >1000 | 5.5 to 6.0 | – | 20 | – | 24 | 0.015 | significantly better results than either kanamycin or neomycin B | – | – | – | – | – | – | – |
| NC[C@@H]1O[C@H](O[C@H]2[C@@H](O)[C@H](O[C@@H]3[C@@H](O)[C@H](N)C[C@H](N)[C@H]3O[C@H]3O[C@H](CN)[C@@H](O)[C@H](O)[C@H]3N)O[C@@H]2CO[C@@H]2O[C@H](CO)[C@@H](O)[C@H](O)[C@H]2N)[C@H](N)[C@@H](O)[C@@H]1O | 2 (≈ 2.58 µM) | 25 to 30 | 35 to 40 | >200 | 40 to 50 | >1250 | – | – | 66 | 0.013 | – | – | – | – | – | – | – | – | – | – |
| NC[C@@H]1O[C@H](O[C@H]2[C@@H](O)[C@H](O[C@@H]3[C@@H](O)[C@H](N)C[C@H](N)[C@H]3O[C@H]3O[C@H](CN)[C@@H](O)[C@H](O)[C@H]3N)O[C@@H]2CO[C@@H]2O[C@H](CO)[C@@H](O)[C@H]2O)[C@H](N)[C@@H](O)[C@@H]1O | 1 (≈ 1.34 µM) | 10 to 11 | 4.5 to 6 | 35 to 45 | 60 to 65 | – | – | – | 134 | 0.028 | – | – | activity close to that of neomycin B | as potent as neomycin B | better activity than neomycin B | about 5 times | 2 | better activity than other analogues | effective | – |
| NC[C@@H]1O[C@H](O[C@H]2[C@@H](O)[C@H](O[C@@H]3[C@@H](O)[C@H](N)C[C@H](N)[C@H]3O[C@H]3O[C@H](CN)[C@@H](O)[C@H](O)[C@H]3N)O[C@@H]2CO[C@@H]2O[C@H](CN)[C@@H](O)[C@H]2O)[C@H](N)[C@@H](O)[C@@H]1O | 2 (≈ 2.68 µM) | 35 to 40 | 35 to 50 | 200 to 250 | 55 to 60 | >1000 | 4 to 5 | – | 39 | – | – | – | – | – | – | – | – | – | – | about 10 fold |
| NC[C@@H]1O[C@H](O[C@H]2[C@@H](O)[C@H](O[C@@H]3[C@@H](O)[C@H](N)C[C@H](N)[C@H]3O[C@H]3O[C@H](CN)[C@@H](O)[C@H](O)[C@H]3N)O[C@@H]2CO[C@@H]2O[C@H](CO)[C@@H](N)[C@@H](N)[C@H]2O)[C@H](N)[C@@H](O)[C@@H]1O | 8 (≈ 10.3 µM) | 95 (≈ 123 µM) | 85 (≈ 110 µM) | >200 | – | >1250 | 5.5 to 7 | – | 50 | 0.011 | – | – | – | – | – | – | – | – | – | – |
| NC[C@@H]1O[C@H](O[C@H]2[C@@H](O)[C@H](O[C@@H]3[C@@H](O)[C@H](N)C[C@H](N)[C@H]3O[C@H]3O[C@H](CN)[C@@H](O)[C@H](O)[C@H]3N)O[C@@H]2CO[C@@H]2O[C@H](CN)[C@@H](N)[C@H](O)[C@H]2O)[C@H](N)[C@@H](O)[C@@H]1O | 2 (≈ 2.58 µM) | 40 to 50 | 40 to 50 | >200 | 30 to 35 | >1250 | – | – | 28 | – | 30 | 0.017 | – | – | – | – | – | – | – | – |
| NC[C@@H]1O[C@H](O[C@H]2[C@@H](O)[C@H](OC[C@H]3O[C@@H](O[C@@H]4[C@@H](O)[C@H](N)C[C@H](N)[C@H]4O[C@H]4O[C@H](CN)[C@@H](O)[C@H](O)[C@H]4N)[C@H](O)[C@@H]3O[C@H]3O[C@@H](CN)[C@@H](O)[C@H](O)[C@H]3N)O[C@@H]2CO)[C@H](N)[C@@H](O)[C@@H]1O | 2 (≈ 2.21 µM) | 100 to 150 | 150 to 200 | 250 to 500 | 40 to 60 | >1000 | 4 to 5 | – | 21 | 0.0004 | – | – | – | – | – | – | – | – | – | – |
